{"source": "patent US7582618B2", "about": "(priority 2002, dated 2009)", "test_system": "BVDV NADL cp in MDBK cells", "assay": "Yield reduction assay", "assay_type": "cell-based, bovine viral diarrhea virus", "data": [{"substance": "interferon alpha 2b", "values": [{"measurement": "EC50 against BVDV", "value": 2.6, "unit": "IU per ml"}, {"measurement": "maximal viral reduction", "setting": "even at 1000 IU per ml", "value": "≤ 2", "unit": "logs"}]}]}
